Test system: Influenza

Substance: hydroxypropyl methylcellulose trimellitate [HPMCT]
- Therapeutic Index (CC50/IC50): >2

From US20070148124A1, “Cellulose and acrylic based polymers and the use thereof for the treatment of infectious diseases” (priority 2004, published 2007)
